Mtb cholesterol medium: 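Whole-cell growth test on Mycobacterium tuberculosis, read after 4 days in a medium based on cholesterol and the lipid DPPC; the read-out is not stated. Compounds at 500 µM. The record gives no direction; compounds that gave an IC50 in retests scored well above the rest, so higher reads as more growth inhibition. About 18,000 compounds were tested under these conditions; 5% (about 900) showed 50% or more at least once.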
Mtb glucose medium: 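Growth of Mycobacterium tuberculosis over 3 days (7H9 medium with glucose and tyloxapol); the read-out is not stated. Compounds at 500 µM. The record gives no direction; compounds that gave an IC50 in retests scored well above the rest, so higher reads as more growth inhibition. Size under these conditions: about 18,000 compounds, about 1,400 of them at 50% or above in at least one test.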

The filed quantity is “Percent Effect” (%). How 0% and 100% were set is not recorded. Most values in the screen are low, and negative values occur. The entries come from a sample that favours strong results. A dash means the value is not listed here; it may have been measured.

SMILES | Mtb cholesterol medium | Mtb glucose medium
CCNC(C)c1cccnc1 (centres undefined) | - | -4.182
CC(C)(C)CC(=O)Nc1nnc(-c2ccccn2)[nH]1 | - | 22.51
CN(C)c1ccc(N)nc1 | - | -393.6
N[C@@H]1C[C@H]1c1ccc(F)c(F)c1 | 24.27 | -
O=C(CN1CCC(O)CC1)Nc1ccccc1F | 3.904 | -
O=C(OCC(=O)N1CCNC1=O)c1ccc(O)cc1 | - | 19.07
CN1Cc2cccn2CC1CNC(=O)c1cccn1C (centres undefined) | -0.9721 | -
NCc1ccc(S(=O)(=O)N2CCOCC2)cc1 | - | 7.558
CCOC(=O)C(C)Nc1ccc2c(c1)CCCC(=O)N2 (centres undefined) | 71.35 | -
CCN(CC)CCSC1CCCCNC1=O (centres undefined) | - | -11.56
COCCOCCn1nc(C)c(C#N)c1N | 75.54 | 8.067
Nc1nnc(SCc2cn3ccccc3n2)s1 | -2.688 | -0.8762
NC[C@@H](O)c1cccc(Br)c1 | -2.51 | -
CN(C(=O)c1ccc(S(C)(=O)=O)cc1)c1ccccc1 | -7.156 | -4.329
CNC(=O)c1cc(OC2CCNC2)ccn1 (centres undefined) | - | 31.86
Cc1ccn(-c2ccccc2NC(=O)CN(C)C)n1 | - | 17.99
O=C(CCc1cccnc1)NCCN1CCNC1=O | -17.71 | -
Cc1ccc(S(=O)(=O)NCC(C)(C)N)c2cccnc12 | - | 21.4
COCC(=O)NCCc1ccccc1F | - | 35.31
CN1CC(NC(=O)NCCc2cccs2)CC1=O (centres undefined) | - | -6.486
N#CCOc1ccc(CN)cc1 | 15.79 | 9.523
Cn1cccc1C(=O)OCCCN1CCOCC1 | 13.7 | -
Cc1cc(C2CCCN2C(=O)CCS(C)(=O)=O)on1 (centres undefined) | - | 9.888
COCCCN1CCCN(C(=O)c2sccc2C)CC1 | - | 16.32
NC1CC(c2cc(NCCCn3ccnn3)ncn2)C1 (centres undefined) | - | 1.758
CC(=O)N1CSCC1c1nc(-c2cccs2)no1 (centres undefined) | - | 18.56
Cc1nnc(SCC(=O)NCCOc2nonc2C)s1 | - | 17.99
CC1(CN)CCC(=O)N1 (centres undefined) | -3.363 | -
OCCC1(NCc2ccc(F)cc2)CCOCC1 | 4.381 | -
CC(CN(CCO)Cc1nccn1C)N1CCCC1 (centres undefined) | -38.89 | -
c1ccc(CNC2CCNC2)cc1 (centres undefined) | - | 4.046
CCOc1nn(C)cc1N | - | 23.3
O=C(c1cccnc1)N1CCCC1c1ccc(O)cc1 (centres undefined) | - | 11.67
Cc1nc(CCN)cc(NC2CCC2)n1 | - | 68.28
CC(=O)Nc1cccc(C(C)O)c1 (centres undefined) | -7.766 | -8.474
NCc1cccc(=O)[nH]1 | - | 1.977
CCOC(=O)C(C)(N)C(C)C (centres undefined) | - | -10.22
O=C(Nc1cc(F)ccc1F)c1cnccn1 | - | -11.44
Clc1ccc(CSc2cnn[nH]2)s1 | 89.09 | 73.44
O=C(CCc1ccco1)NCC(O)c1ccccc1F (centres undefined) | - | 30.43
O=C1CC2(CCSC2)C(=O)N1Cc1ccc(Cl)cn1 (centres undefined) | - | -14.12
C[C@@H](CO)NC(=O)c1ccccc1NCc1ccco1 | - | 16.47
NC1CCCN(c2ccccc2F)C1 (centres undefined) | -10.46 | -8.097
Cc1noc(C2COCCN2Cc2cncs2)n1 (centres undefined) | 1.193 | -
Cc1cccc(CNCCc2nnc[nH]2)c1 | - | 13.86
C/C=C/c1ccc(OCCNC)c(OC)c1 | - | 5.108
CCn1c(CN(C)CC(F)(F)F)nnc1[C@H]1C[C@@H](N)C1 | - | 19.25
NCc1noc(-c2ccc(Cl)cc2F)n1 | 59.14 | 57.93
O[C@@H]1CCN(CC=Cc2ccc(F)cc2)C1 | 19 | -7.441
NC(=O)c1ncccc1CO | - | -7.971
CC(CO)NC(=O)NCc1ccccc1 (centres undefined) | - | 14.55
CC(C)C(N)C1(CO)CC=CC1 (centres undefined) | -30.98 | -
CC(=O)NCCS(=O)(=O)N1CCc2ccccc21 | 3.504 | 22.43
CCCOc1ccc(CNC(=O)c2cc[nH]n2)cn1 | 53.37 | 63.02
C=C(C)CNC(=O)Nc1cnn(CCN(C)C)c1 | - | -6.255
CCOc1ccc(Cl)cc1CNCCNCC(C)O (centres undefined) | 52.82 | -
Cn1cc(CNC(=O)c2ccco2)cn1 | 13.72 | 15.5
N#Cc1ccccc1N1CCCC(N)C1 (centres undefined) | 63.65 | 66.64
CCC1CCCCN1C(=O)c1csc(NC(C)=O)n1 (centres undefined) | - | 24.2
O=C(CN1CCOC(c2ccccc2)C1)NC1CC1 (centres undefined) | - | 39.5
NCC(=O)N1CCCC(COc2ccc(F)cc2)C1 (centres undefined) | 21.21 | 53.57
O=c1c2ccccc2ncn1CCc1ccccn1 | - | 22.61
C=C(C)CN(CC)C(=O)CN(C)CCN1CCOCC1 | - | 12.11
CN(CCc1cnn(C)c1)C(=O)CN1CCOC1=O | - | 8.147
CC1(c2ccc(F)cc2)CNC(=O)O1 (centres undefined) | 11.62 | -
CN(C)CCCNC(=O)c1cc2ccccc2[nH]1 | 16.48 | -
COc1ccsc1C(=O)Nc1nc(C)nn1C | 1.045 | -
CC1CC(=O)N(C)c2ccccc2N1 (centres undefined) | - | 2.851
Cn1c(=O)ccn(CC(=O)Nc2ncccc2O)c1=O | - | -2.146
COCC(C)NC(=O)c1cccnc1OCC(F)(F)F (centres undefined) | - | -5.225
CC(C)N(CCOc1ccccc1C#N)CC(N)=O | 30.85 | 44.62
NCCCOC1CCN(C(=O)Cc2ccsc2)CC1 | - | 24.66
CC(C)=CCO[C@H]1CCOC[C@H]1NC(=O)c1cnc[nH]1 | - | -2.511
CCOC(=O)N1CCN(C(=O)Cc2cccs2)CC1 | - | 69.47
CC(C)(C)OC(=O)N1CCC(CO)C(F)(F)C1 (centres undefined) | - | 34.05
COCCOCC(=O)Nc1cc(C)c(Br)cn1 | - | 20.05
CCN1CCN(C(=O)CN2CCCCCCC2=O)CC1 | - | 12.23
O=C(NCc1ccc2c(c1)OCCCO2)c1cscn1 | 65.46 | 74.27
CN(Cc1c(F)cccc1Cl)C(=O)CNC(=O)C1CC1 | 55.69 | 63.31
CN(C)c1cc(CNC(=O)c2ccccc2F)ccn1 | - | 38.77
NCC1CCCN(C(N)=O)C1 (centres undefined) | - | 1.269
COCC(=O)N1CCCN(Cc2cnn(C)c2)CC1 | - | 0.9726
COC(=O)c1sc(N)nc1C | - | -7.442
CC(C)CNC(=O)CNC(=O)NCC1(C)CCCC1 | 17.01 | -

For reference, 6 entries once more:

| SMILES | Mtb cholesterol medium | Mtb glucose medium |
|---|---|---|
| `O[C@@H]1CCN(CC=Cc2ccc(F)cc2)C1` | 19 | -7.441 |
| `CC(C)C(N)C1(CO)CC=CC1` (centres undefined) | -30.98 | - |
| `CC(CO)NC(=O)NCc1ccccc1` (centres undefined) | - | 14.55 |
| `CCN1CCN(C(=O)CN2CCCCCCC2=O)CC1` | - | 12.23 |
| `Cc1ccn(-c2ccccc2NC(=O)CN(C)C)n1` | - | 17.99 |
| `O=C(CN1CCC(O)CC1)Nc1ccccc1F` | 3.904 | - |

Source: ChEMBL document CHEMBL3988442, “University of Dundee, Small-Polar-MMV Screening Library” (2021).